The NIST ThermoML archive (doi:10.1021/je8003707)
Numbers after ± are expanded uncertainties.

Test: xn = mol fraction of the nth substance listed
Conditions: 101 kPa, Liquid; for viscosity: Capillary tube (Ostwald / Ubbelohde) method; for mass density: Pycnometric method

CCCCOP(=O)(OCCCC)OCCCC [tributyl phosphate] + C1CCCCC1
Conditions | mass density, 288.15 K [kg/m3] | mass density, 293.15 K [kg/m3] | mass density, 298.15 K [kg/m3] | mass density, 303.15 K [kg/m3] | mass density, 308.15 K [kg/m3] | viscosity, 288.15 K [mPa·s] | viscosity, 293.15 K [mPa·s] | viscosity, 298.15 K [mPa·s] | viscosity, 303.15 K [mPa·s] | viscosity, 308.15 K [mPa·s]
x1 = 0.1002 | 823.6 ± 0.4 | 819.1 ± 0.3 | 814.4 ± 0.3 | 809.8 ± 0.4 | 805.2 ± 0.4 | 1.286 ± 0.013 | 1.172 ± 0.012 | 1.072 ± 0.011 | 0.989 ± 0.011 | 0.904 ± 0.01
x1 = 0.2037 | 857.3 ± 0.3 | 852.7 ± 0.3 | 848.2 ± 0.3 | 843.6 ± 0.4 | 839.1 ± 0.4 | 1.562 ± 0.015 | 1.424 ± 0.014 | 1.298 ± 0.013 | 1.183 ± 0.012 | 1.085 ± 0.011
x1 = 0.3001 | 882.3 ± 0.3 | 877.9 ± 0.3 | 873.4 ± 0.3 | 868.9 ± 0.3 | 864.6 ± 0.4 | 1.851 ± 0.017 | 1.676 ± 0.015 | 1.52 ± 0.014 | 1.389 ± 0.013 | 1.275 ± 0.012
x1 = 0.4106 | 905.7 ± 0.3 | 901.2 ± 0.3 | 896.9 ± 0.3 | 892.5 ± 0.3 | 888 ± 0.3 | 2.224 ± 0.019 | 1.998 ± 0.017 | 1.808 ± 0.015 | 1.641 ± 0.014 | 1.496 ± 0.013
x1 = 0.4982 | 922 ± 0.3 | 917.6 ± 0.3 | 913.3 ± 0.3 | 908.7 ± 0.3 | 904.5 ± 0.3 | 2.535 ± 0.02 | 2.266 ± 0.019 | 2.034 ± 0.017 | 1.84 ± 0.015 | 1.666 ± 0.014
x1 = 0.5928 | 936.5 ± 0.3 | 932.2 ± 0.3 | 927.8 ± 0.3 | 923.4 ± 0.3 | 919.1 ± 0.3 | 2.857 ± 0.023 | 2.542 ± 0.02 | 2.274 ± 0.018 | 2.044 ± 0.016 | 1.848 ± 0.015
x1 = 0.7056 | 951.1 ± 0.3 | 946.7 ± 0.3 | 942.4 ± 0.3 | 938.1 ± 0.3 | 934 ± 0.3 | 3.253 ± 0.025 | 2.873 ± 0.023 | 2.566 ± 0.02 | 2.302 ± 0.018 | 2.069 ± 0.016
x1 = 0.7898 | 960.8 ± 0.3 | 956.3 ± 0.3 | 952 ± 0.3 | 947.7 ± 0.3 | 943.5 ± 0.3 | 3.555 ± 0.027 | 3.14 ± 0.024 | 2.795 ± 0.021 | 2.496 ± 0.019 | 2.24 ± 0.017
x1 = 0.9063 | 972.8 ± 0.3 | 968.6 ± 0.3 | 964.3 ± 0.3 | 959.9 ± 0.3 | 955.8 ± 0.3 | 3.962 ± 0.03 | 3.5 ± 0.027 | 3.098 ± 0.024 | 2.755 ± 0.021 | 2.462 ± 0.019
x1 = 1 | – | – | – | – | – | 4.304 ± 0.032 | 3.77 ± 0.028 | 3.341 ± 0.025 | 2.969 ± 0.022 | 2.651 ± 0.02

CCCCOP(=O)(OCCCC)OCCCC [tributyl phosphate] + CCCCCCC
Conditions | mass density, 288.15 K [kg/m3] | mass density, 293.15 K [kg/m3] | mass density, 298.15 K [kg/m3] | mass density, 303.15 K [kg/m3] | mass density, 308.15 K [kg/m3] | viscosity, 288.15 K [mPa·s] | viscosity, 293.15 K [mPa·s] | viscosity, 298.15 K [mPa·s] | viscosity, 303.15 K [mPa·s] | viscosity, 308.15 K [mPa·s]
x1 = 0.1028 | 739.5 ± 0.3 | 735.2 ± 0.3 | 731.2 ± 0.3 | 726.8 ± 0.3 | 722.5 ± 0.3 | 0.584 ± 0.008 | 0.549 ± 0.007 | 0.52 ± 0.007 | 0.489 ± 0.007 | 0.461 ± 0.007
x1 = 0.1954 | 779.5 ± 0.3 | 775 ± 0.3 | 770.7 ± 0.3 | 766.5 ± 0.3 | 761.9 ± 0.3 | 0.753 ± 0.008 | 0.704 ± 0.008 | 0.659 ± 0.008 | 0.619 ± 0.008 | 0.582 ± 0.008
x1 = 0.2961 | 817 ± 0.3 | 812.5 ± 0.3 | 808.2 ± 0.3 | 803.8 ± 0.3 | 799.5 ± 0.3 | 0.984 ± 0.01 | 0.913 ± 0.009 | 0.847 ± 0.009 | 0.789 ± 0.008 | 0.737 ± 0.008
x1 = 0.3975 | 849.9 ± 0.3 | 845.4 ± 0.3 | 840.9 ± 0.3 | 836.7 ± 0.3 | 832.2 ± 0.3 | 1.267 ± 0.011 | 1.164 ± 0.01 | 1.072 ± 0.01 | 0.993 ± 0.009 | 0.922 ± 0.009
x1 = 0.4951 | 877.6 ± 0.3 | 873.2 ± 0.3 | 868.7 ± 0.3 | 864.3 ± 0.3 | 860.1 ± 0.3 | 1.59 ± 0.013 | 1.444 ± 0.012 | 1.321 ± 0.011 | 1.214 ± 0.01 | 1.121 ± 0.01
x1 = 0.6079 | 905.7 ± 0.3 | 901.4 ± 0.3 | 897 ± 0.3 | 892.7 ± 0.3 | 888.5 ± 0.3 | 2.024 ± 0.016 | 1.829 ± 0.014 | 1.658 ± 0.013 | 1.512 ± 0.012 | 1.377 ± 0.011
x1 = 0.7045 | 927.2 ± 0.3 | 922.9 ± 0.3 | 918.5 ± 0.3 | 914.2 ± 0.3 | 910 ± 0.3 | 2.466 ± 0.019 | 2.211 ± 0.017 | 1.999 ± 0.015 | 1.808 ± 0.014 | 1.634 ± 0.013
x1 = 0.796 | 945.5 ± 0.3 | 941.1 ± 0.3 | 936.7 ± 0.3 | 932.5 ± 0.3 | 928.2 ± 0.3 | 2.953 ± 0.022 | 2.631 ± 0.019 | 2.355 ± 0.017 | 2.119 ± 0.016 | 1.911 ± 0.014
x1 = 0.8995 | 964.3 ± 0.3 | 959.9 ± 0.3 | 955.7 ± 0.3 | 951.4 ± 0.3 | 947.3 ± 0.3 | 3.618 ± 0.027 | 3.189 ± 0.024 | 2.833 ± 0.021 | 2.535 ± 0.018 | 2.269 ± 0.017
x1 = 1 | 981 ± 0.3 | – | 972.5 ± 0.3 | – | – | – | – | – | – | –
